We go through 1 substance from publication PMC4033508.

This data set has as its system O=C(O)CC(=O)C(=O)O. In words: purified protein. The following applies: pH 6.0; 40.0 °C.

By Km is commonly meant the concentration of substrate that gives half-maximal velocity. Consider “His-MDH (B. abortus malate dehydrogenase) (Brucella abortus 2308)”, for which the Km was 6.45 mM.
